For this assay, the target named is E protein of wild type Dengue-2 virus 16681 (Dengue virus type 2, strain 16681) (UniProt P29990). The experiment in a line: cell-based or functional assay. As to conditions: scale: greatest antibody dilution that decreased plaques by at least 50%.

Consider “DENV-2 E protein-specific monoclonal antibody (MAb3H5)”, for which the PRNT50 Titer is more than 2560.
“WNV E protein-specific monoclonal antibody (MAb3.67G)” showed a PRNT50 Titer of less than 1280.

Values taken from US20110150771A1.
